From patent publication US20250282834A1, “PEPTIDE INHIBITORS FOR CHROMODOMAIN HELICASE DNA BINDING PROTEIN 4 (CHD4)” (THE REGENTS OF THE UNIVERSITY OF CALIFORNIA, priority 2022, published 2025) come the findings set out here.

In the assay the test system is KSHV. Nature of the assay: RT-qPCR of CHD4, LANA and K-Rta gene expression in BC3 cells. In kind it is cell-based, Kaposi's sarcoma-associated herpesvirus (KSHV). The note with it: RT-qPCR normalized to 18S ribosomal RNA. (Quantitative PCR measures a nucleic acid by following its amplification.)

“Also recorded” adds a separate entry of the source.

`CC[C@H](C)[C@H](NC(=O)[C@@H](NC(=O)[C@H](C)NC(=O)[C@H](Cc1c[nH]cn1)NC(=O)[C@H](CCCCN)NC(=O)[C@H](Cc1c[nH]c2ccccc12)NC(=O)CCNC(=O)[C@H](CCCNC(=N)N)NC(=O)[C@H](CCCNC(=N)N)NC(=O)[C@H](CCCNC(=N)N)NC(=O)[C@H](CCCN)NC(=O)[C@H](CCCNC(=N)N)NC(=O)[C@H](CCCNC(=N)N)NC(=O)[C@H](CCCCN)NC(=O)[C@H](CCCCN)NC(=O)[C@H](N)CCCNC(=N)N)C(C)C)C(=O)N[C@@H](Cc1ccccc1)C(=O)N[C@@H](Cc1c[nH]c2ccccc12)C(=O)NCC(=O)N[C@@H](CC(N)=O)C(=O)N[C@@H](CC(=O)O)C(=O)N1CCC[C@H]1C(=O)N[C@@H](Cc1ccc(O)cc1)C(=O)NCC(=O)N[C@@H](CC(C)C)C(=O)N[C@@H](CCCCN)C(=O)N[C@@H](CCCCN)C(=O)O` [VGN73, (d-Arg}KKRR{ORN}RRR{β-Ala}WKHAVIFWGNDPYGLKK]: the “K-Rta-mediated lytic gene expression / KSHV reactivation” value is listed as “increased K-Rta-mediated lytic gene expression; also recorded: induces KSHV reactivation in KSHV latently infected PEL cells”.
